These results are taken from paper PMC3978507, “Fusion of a Short HA2-Derived Peptide Sequence to Cell-Penetrating Peptides Improves Cytosolic Uptake, but Enhances Cytotoxic Activity” (Pharmaceuticals, 2009).

The nature of this data set: CD spectroscopy. The data set is classed as physicochemical. As to conditions: 20 µM peptide, 10 mM phosphate buffer pH 7 with 50% TFE, 20 °C.

With “GLRKRLRKFRNKIKEK [sC18, new cell-penetrating peptide, residues 106-121 of the antimicrobial peptide CAP18]”, the “R-value (ratio of molar ellipticity at 222 nm and 207 nm), 50% TFE” value stood at 0.78.
